Compound potency records, mixed from different reports. Data source: NIAID ChemDB in PubChem.

Shared fields: whole-cell or culture tests; species: Human cytomegalovirus; cell line: HFF; endpoint: EC50

ECn: concentration that inhibits the pathogen or its effect by n%. Blank or dashed fields: not listed here. Neighbouring rows are from separate reports. a–b is a range or a potency band.

structure	strain	read by	result
Brc1ccc(Nc2ncnc3ccccc23)cc1	AD169	plaque count	>3 µM
CC(NC(=S)Nc1ccc(NC(=O)c2ccccc2F)cc1)c1ccc(F)cc1	AD169	ELISA	>7 µg/mL
O[C@@H]1[C@H](O)[C@H](O)CO[C@H]1n1c(Br)nc2cc(Cl)c(Cl)cc21	C8706/13-1-1 (drug-resistant)	plaque count	2.1 µM
Nc1cn(/C=C2/C[C@H]2CO)c(=O)[nH]c1=O	AD169	cytopathic effect	3.4 µM
O=C(NCc1ccc(Cl)cc1)c1cn2c3c(cc(CN4CCOCC4)cc3c1=O)OC(c1cccnc1)C2	TOWNE	plaque count	1.7 µM
Nc1nc2c(ncn2C=C2CC2CO)c(=O)[nH]1	AD169	plaque count	0.3 µM
O=C(Nc1ccc(NC(=S)Nc2cc(C(F)(F)F)cc(C(F)(F)F)c2)cc1)c1csnn1	AD169	virus yield	0.12 µM
Nc1nc2c(ncn2COC(CO)CO)c(=O)[nH]1	TOWNE	plaque count	7.4 µM
Cn1cc(C(=O)NCc2ccc(Cl)cc2)c(=O)c2cc(CN3CCOCC3)ccc21	DAVIS	plaque count	0.5 µM
OCC(CO)OCn1cc(Br)c2c(NO)ncnc21	TOWNE	virus yield	<10 µM
Nc1nc2c(ncn2COC(CO)CO)c(=O)[nH]1	TOWNE	plaque count	7.4 µM
O=c1[nH]c(=O)n([C@H]2C[C@H](O)[C@@H](CO)O2)cc1CCCl	AD169	cytopathic effect	0.06 µM
OC[C@H]1O[C@@H](n2c(Br)nc3cc(Cl)c(Cl)cc32)[C@H](O)[C@@H]1O	GDGRP53 (drug-resistant)	plaque count	2.1 µM
Cc1cccc2nc(Nc3c(Cl)cccc3Cl)oc(=O)c12		ELISA	>100 µM
Nc1nc2c(ncn2C=C2CC2CO)c(=O)[nH]1	AD169	plaque count	1.2 µM
CC(C)[C@H](N)C(=O)NCC(=O)OCC(COC(=O)CNC(=O)[C@@H](N)C(C)C)OCn1cnc2c(=O)[nH]c(N)nc21		plaque count	4.6 µM
Nc1ncnc2c1ncn2[C@H]1C[C@]12C[C@H]2CO			20 µM
COc1ccccc1C(=O)Nc1ccc(NC(=S)NCCc2cc3ccccc3o2)cc1		virus yield	>10 µg/mL
CCCCCCCCCCCCCCCCOP(=O)(O)CO[C@H](CO)Cn1ccc(N)nc1=O	759rD100	plaque count	0.08 µM
COC(=O)C(C)NP(=O)(OC[C@@H]1C/C1=C\n1cc(C)c(=O)[nH]c1=O)Oc1ccccc1	AD169	cytopathic effect	243 µM
CC(=O)OCC(CO)OCn1cnc2c(=O)[nH]c(N)nc21		plaque count	1.2 µg/mL
Nc1nc(NC2CC2)c2ncn(COCCCP(=O)(O)O)c2n1	AD169	plaque count	>90 µM
CCCCCCCCCCCCO[C@H]1O[C@H](COP(=O)(O)C(=O)O)[C@@H](O)[C@H](O)[C@H]1O	TOWNE		13.2 µM
CCCCCCCC/C=C\CCCCCCCOCCCOP(=O)(O)CO[C@H](CO)Cn1ccc(N)nc1=O	GDGrP53	plaque count	0.03 µM
CC(C)Nc1nc2cc(Cl)c(Cl)cc2n1[C@H]1O[C@@H](CO)[C@H](O)[C@@H]1O	C4 (BDCRB-resistant)	virus yield	<2.9 µM
Nc1nc2c(ncn2COC(CO)CO)c(=O)[nH]1		virus yield	1.8 µM
Nc1ncc2c(ncn2COC(CO)CO)n1	AD169	plaque count	0.5 µM
OC[C@H]1O[C@@H](c2cc(Br)nc3cc(Cl)c(Cl)cc23)C(O)C1O		plaque count	30 µM
Nc1nc2c(ncn2C=C2CC2CO)c(=O)[nH]1	TOWNE		2.1 µM
Nc1nc2c(ncn2COC(CO)CO)c(=O)[nH]1	TOWNE	virus yield	<1.6 µM
Nc1ncnc2c1ncn2C=C1CC1CO	AD169	plaque count	1.3 µM
Nc1ncnc2c1c(Br)cn2COC(CO)CO	TOWNE	virus yield	<1.9 µM
C=C(C)[C@@H]1CCc2c(O)c(O)c(=O)cc(C)c2C1	AD169	plaque count	2.66 µM
Nc1nc2c(ncn2COC(CO)CO)c(=O)[nH]1		plaque count	0.16 µg/mL
COC(=O)[C@H](C)NP(=O)(OCC1C/C1=C/n1cnc2c(=O)[nH]c(N)nc21)Oc1ccccc1	TOWNE		4.2 µM
COC(=O)[C@H](C)Nc1nc2ccc(NC(=O)OC(C)(C)C)c(C)c2c(=O)o1		ELISA	100 µM
Nc1ncnc2ncn(/C=C3/C(F)C3(CO)CO)c12	TOWNE	cytopathic effect	>100 µM
CCCCCCCCCCCCCCCCOCCCOP(=O)(O)CCCOCn1cnc2c(=O)[nH]c(N)nc21	AD169	plaque count	0.14 µM
Nc1nc(NC2CC2)c2ncn(/C=C3\CC3(CO)CO)c2n1	AD169	plaque count	377 µM
Nc1nc2c(ncn2COC(CO)CO)c(=O)[nH]1	C8708/17-1-1	plaque count	4.3 µM
CCCCCCCC/C=C\CCCCCCCCO[C@H]1O[C@H](COP(=O)(O)C(=O)O)[C@@H](O)[C@H](O)[C@H]1O	TOWNE		4.5 µM
CC(=O)N[C@H]1C[C@@H](n2cnc3c(N)ncnc32)[C@H](O)[C@@H]1O			>100 µg/mL
CC(C)=CCc1ccc(O)c(=O)cc1C(C)C	AD169	plaque count	0.45 µM
OC[C@H]1O[C@@H](n2c(Cl)nc3cc(Cl)c(Cl)cc32)[C@H](O)[C@@H]1O	TOWNE	plaque count	2.9 µM
OCC(CO)OCn1cc(I)c2c(NO)ncnc21	TOWNE	virus yield	<3.2 µM
OCCSCc1c(Cl)nc2ccc(Cl)cn12	TOWNE	plaque count	>100 µM
Nc1nc2c(ncn2COCCO)c(=O)[nH]1	AD169	plaque count	40 µM
O=C(Nc1ccccc1NC(=S)NCCOc1cccc(Cl)c1)c1ccccc1F		virus yield	>0.5 µg/mL
CCCCNc1c(C#N)c2cc(Cl)c(Cl)cc2n1[C@@H]1O[C@H](CO)[C@@H](O)[C@H]1O		plaque count	15 µM
CCSCc1c(Cl)nc2ccc(Cl)cn12	TOWNE	plaque count	22 µM
CN(C)c1c(C#N)c2cc(Cl)c(Cl)cc2n1[C@@H]1O[C@H](CO)[C@@H](O)[C@H]1O		plaque count	17 µM
COc1cc(OC)c(NC(=S)Nc2ccc(NC(=O)c3ccccc3F)cc2Cl)cc1Cl	AD169	ELISA	6 µg/mL
COC(=O)[C@H](C)NP(=O)(OC[C@H]1C/C1=C/n1cnc2c(=O)[nH]c(N)nc21)Oc1ccccc1	AD169	cytopathic effect	7.6 µM
COC(=O)[C@H](C)NP(=O)(OC[C@H]1C/C1=C/n1cnc2c(OC)nc(N)nc21)Oc1ccccc1	AD169		4.5 µM
CC(C)c1ccc(O)c(O)c(=O)c1	AD169	plaque count	1.3 µM
CCCCCCCCCCCCCCCCOCCCOP(=O)(O)CCCOCn1cnc2c(N)nc(N)nc21	AD169	plaque count	2.85 µM
O=[N+]([O-])c1ccc(CSc2nnnc3c2ncn3[C@@H]2O[C@H](CO)[C@@H](O)[C@H]2O)cc1		plaque count	>100 µM
COc1c(C#N)c2cc(Cl)c(Cl)cc2n1[C@@H]1O[C@H](CO)[C@@H](O)[C@H]1O		plaque count	7 µM
O=C(O)P(=O)(O)O	TOWNE		77 µM
Nc1nc2c(ncn2COCCCP(=O)([O-])O)c(=O)[nH]1	AD169	plaque count	5.4 µM
Nc1ncnc2c1ncn2[C@H]1C[C@H](O)[C@]2(CO)C[C@H]12		cytopathic effect	3.1 µg/mL
CCCCCCCCCCCCCCCCCCCCO[C@@H]1O[C@H](COP(=O)(O)C(=O)O)[C@H](O)[C@H](O)[C@H]1O	TOWNE		4 µM
O=C(O)P(=O)(O)O	Isolate Helebrand (resistant)	plaque count	94.01 µM
Nc1ccn(CSC(CO)CO)c(=O)n1	AD169	plaque count	>100 µM
CSc1nnnc2c1ncn2[C@@H]1O[C@H](CO)[C@@H](O)[C@H]1O		virus yield	0.3 µM
Cn1cc(C(=O)NCc2ccc(Cl)cc2)c(=O)c2cc(CN3CCOCC3)ccc21	C8914-6 ganciclovir-resistant	plaque count	>11 µM
O=C(Nc1ccc(NC(=S)Nc2cc(C(F)(F)F)cc(C(F)(F)F)c2)cc1)c1ccco1		virus yield	0.0015 µg/mL
COc1cc2ncnc(Nc3ccc(Br)cc3)c2cc1OC	AD169	plaque count	<3 µM
O=C(Nc1ccc(NC(=S)Nc2cc3ccccc3o2)cc1)c1nccc2ccccc12		virus yield	>10 µg/mL
C[C@H](NC(=S)Nc1ccc(NC(=O)c2cncs2)nc1)c1cc(C(F)(F)F)cc(C(F)(F)F)c1		virus yield	0.001 µg/mL
CCN(C)c1ccc(Oc2ccc(O)cc2)cc1	AD169	plaque count	0.4–0.6 µM
Nc1nc2c(ncn2COC(CO)CO)c(=O)[nH]1	Isolate Helebrand (resistant)	plaque count	2.93 µM
Brc1cccc(Nc2ncnc3ccccc23)c1	AD169	plaque count	<3 µM
CCCC(=O)OCC(COC(=O)CCC)OCn1cnc2c(=O)[nH]c(N)nc21		plaque count	1.3 µg/mL
Nc1nc(Cl)c2ncn(/C=C3/C[C@H]3CO)c2n1		cytopathic effect	5.6 µM
CC(C)[C@H](N)C(=O)N[C@H](C(=O)OCC(COC(=O)[C@@H](NC(=O)[C@@H](N)C(C)C)C(C)C)OCn1cnc2c(=O)[nH]c(N)nc21)C(C)C		plaque count	4 µM
Nc1nc(NC2CC2)c2ncn(C=C3CC3CO)c2n1	CH	plaque count	2.7 µM
CNc1c(C=O)c2cc(Cl)c(Cl)cc2n1[C@@H]1O[C@H](CO)[C@@H](O)[C@H]1O		plaque count	1.5 µM
COC(=O)C(C)NP(=O)(OC[C@@H]1C/C1=C/n1cc(N)c(=O)[nH]c1=O)Oc1ccccc1	AD169	cytopathic effect	29.8 µM
Nc1nc2c(ncn2COC(CO)CO)c(=O)[nH]1	DAVIS	cytopathic effect	1.6 µM